Test results as given in PMC5650617.

Molecular target: IscR::His6 (Klebsiella pneumoniae CG43 (CG43S3)) (UniProt A6TCF2)
Test: EMSA
Conditions: holo ([2Fe-2S]) form, weaker than PgalF-1; box #2 deleted; EMSA: 5 ng DNA, room temperature, 30 min, 5% non-denaturing PAGE, SYBR Green I stain; salt and pH not given (as in Wu et al., 2014); recombinant protein; probe letters rebuilt from the primers and the genome

GCAATAGCAACATTCTGATTGGGTTAATCAGATGTTTTTATGAGCGTTTGATGTTATTGACTATCTTTGCAGCCAGATTGATATGTATAAACTTGGAATTTGATATTGTATTTCCTGTAATCAAGAGTTTCGAATTTTGGTCATGACAAAAACGACAACGGCCTCCAAGCTGGAGACCGGTCGAAGGATAAAATGAGAGAACGATCGTCGATCACGCCCCATTTGTAGGATCTATAGTGCCAGTAGCGGTGAGGTTTTTCCAGGCAAATATTGAGGA (double strand) [PmrkHI-2]
binding result: binds

The exact form of at least one protein or probe is not confirmed.
